PubChem BioAssay AID1259414 | Drosophila RNAi Screening Center, 2018

Assay: 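Genome-wide screen for host control of endosymbiont load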 (primary screen)
Cell system: Drosophila JW18 cells infected with Wolbachia
Reagent: long dsRNA against Drosophila genes, 0.25 µg dsRNA per well of a 384-well plate
Timing: 5 days
Conditions: cells persistently infected with Wolbachia before knock-down; no added drug
Measured: 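Imaged fluorescence in situ signal for Wolbachia 23S rRNA per DAPI-counted host cell, given as a robust z-score within each plate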
Direction: Wolbachia per cell robust z: higher = more Wolbachia per host cell than the plate typical
Call rule: 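Hit when robust z is 1.5 or more, or -1.5 or less, in at least two of three replicates; excludes dsRNAs with several or no targets, genes not expressed in JW18 and well A1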
In all, the deposit lists about 24,000 reagents; this is a random part of those with a known target gene and a result. In the full data, about 1,210 (5%) got an active call. 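Inactive calls also include excluded dsRNAs with several or no targets, genes unexpressed in JW18, and well A1, regardless of score.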 A number with no mark means an inactive call. Reagents against one gene are numbered here. Names joined by + are all predicted targets of the reagent. Reagent sequences are not shown.

no.	predicted target	reagent	Wolbachia per cell robust z, rep 1	Wolbachia per cell robust z, rep 2	Wolbachia per cell robust z, rep 3
1	CG32797 + CR32733	1	-0.283	0.209	0.604
2	CG7991	1	0.737	0.402	-2.17
3	CG7991	2	-0.937	0.187	-4.75
4	Acp53C14b	1	-1.83	0.17	1.57
5	Osbp	1	-4.15	-0.212	1.57
6	CG14237	1	0.112	1.18	1.62
7	wdp	1	-0.712	-0.544	0.59
8	wdp	2	-0.219	-0.619	0.12
9	CG13001	1	-0.99	1.36	-1.08
10	Ugt37C1	1	0.479	0.617	0.729
11	Ugt37C1	2	-1.2	-1.98	-0.39
12	Swip-1	1	0.0191	-1.19	-0.373
13	Swip-1	2	-0.818	0.904	1.14

Sorted by “Wolbachia per cell robust z, rep 1” (high to low): some entries from above
predicted target	reagent	Wolbachia per cell robust z, rep 1	Wolbachia per cell robust z, rep 2	Wolbachia per cell robust z, rep 3
CG7991	1	0.737	0.402	-2.17
CG7991	2	-0.937	0.187	-4.75
Acp53C14b	1	-1.83	0.17	1.57
Osbp	1	-4.15	-0.212	1.57

The list goes on.
no.	predicted target	reagent	Wolbachia per cell robust z, rep 1	Wolbachia per cell robust z, rep 2	Wolbachia per cell robust z, rep 3
14	shd	1	0.276	-1.38	0.348
15	kibra	1	-0.94	0.081	-1.63
16	kibra	2	-2.44	-0.802	-0.585
17	kibra	3	-0.0358	-0.329	0.877
18	PCID2	1	-0.085	0.568	0.888
19	PCID2	2	0.906	0.641	-1.06
20	CR32511	1	-1.5	-1.22	-0.181
21	TBPH	1	0.309	-3.72	-0.287
22	TBPH	2	-1	-2.64	-0.76
23	CG13096	1	-0.0675	0.761	0.853
24	CG14406	1	-5.11	0.433	0.236
25	CG14406	2	0.718	-0.531	-1.73
26	CG10026	1	-1.65	-1.13	-0.46
27	CG33635	1	0.523	0.887	0.536
28	CG11655	1	0.411	0.523	-0.812
